In the experiment the target is SARS-CoV-2 RBD (331-527) (SARS-CoV-2) (UniProt P0DTC2). The experiment can be described thus: BLI. On the technique in general: BLI is a label-free optical method that tracks binding on a fibre tip over time.

For orientation: EC50 means the concentration giving half of the maximal effect.

Bounds are passed on as bounds.

WRAIR-5001 (from UniProt P01857): the EC50 is more than 100 µg/mL.
Substance WRAIR-5004 (from UniProt P01857) registered an EC50 of more than 100 µg/mL.
The same measure for WRAIR-5005 (from UniProt P01857): 2.75 µg/mL; for WRAIR-5011 (from UniProt P01857): more than 100 µg/mL.
On to WRAIR-5020 (from UniProt P01857), for which the concentration for a half-maximal effect (EC50) worked out at 4.29 µg/mL.
WRAIR-5021 (from UniProt P01857) returned an EC50 of 2.44 µg/mL.

The values are drawn from publication PMC10764318.
